According to PubChem BioAssay AID2221 (Broad Institute, 2009):
This is a selection; strong and weak results do not stand in their true shares. Active and inactive are the calls of the source. No stated cut-off is given here; in the data, active means inhibition above about 30%; inconclusive means no clear call, values can overlap the other calls; inactive means below that.

By UniProt entry, the sequences of proteins in these tests, tags left out.
UniProt P9WHJ3, whole entry: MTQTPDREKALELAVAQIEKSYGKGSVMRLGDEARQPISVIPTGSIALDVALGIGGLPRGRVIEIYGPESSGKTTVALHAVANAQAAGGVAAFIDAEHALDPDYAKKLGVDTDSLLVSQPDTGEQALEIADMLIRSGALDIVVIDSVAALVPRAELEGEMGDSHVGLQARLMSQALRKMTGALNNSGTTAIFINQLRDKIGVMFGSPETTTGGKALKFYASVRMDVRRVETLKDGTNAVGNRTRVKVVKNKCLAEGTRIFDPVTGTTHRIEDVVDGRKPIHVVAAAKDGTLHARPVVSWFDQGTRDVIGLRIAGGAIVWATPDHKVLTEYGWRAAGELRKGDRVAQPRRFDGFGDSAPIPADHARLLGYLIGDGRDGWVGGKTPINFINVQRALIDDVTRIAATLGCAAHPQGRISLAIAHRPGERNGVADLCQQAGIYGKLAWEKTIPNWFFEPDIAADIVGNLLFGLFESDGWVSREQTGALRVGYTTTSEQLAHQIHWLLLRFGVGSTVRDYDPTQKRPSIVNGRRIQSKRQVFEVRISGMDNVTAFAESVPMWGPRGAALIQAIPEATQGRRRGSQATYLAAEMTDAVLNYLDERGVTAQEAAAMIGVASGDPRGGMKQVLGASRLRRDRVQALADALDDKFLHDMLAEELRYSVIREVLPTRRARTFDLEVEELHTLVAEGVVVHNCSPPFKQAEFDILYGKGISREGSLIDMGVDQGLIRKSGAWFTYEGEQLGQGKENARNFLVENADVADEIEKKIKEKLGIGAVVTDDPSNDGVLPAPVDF

target: Protein RecA (Mycobacterium tuberculosis (strain ATCC 25618 / H37Rv)) (UniProt P9WHJ3); experiment: Mtb RecA intein splicing inhibitors, primary screen, biochemical, fluorescence, HTS (AID 2221); settings: cell-free RecA intein splicing, active compounds read high, concentration not given here;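 further: 0% = vehicle wells and 100% = reference inhibitor control wells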

**Q.** How did the inhibition turn out when `COc1cc(I)ccc1[As](=O)(O)O` was run?
**A.** The inhibition was inactive: 2.17%.

**Q.** Which inhibition does the source give for `COc1ccc2nc(NP(=O)(c3ccccc3)c3ccccc3)sc2c1` here?
**A.** Its inhibition is inactive: 0.452%.

**Q.** For `CCN(CC)CCCOC(=O)C(O)(c1ccccc1)c1ccccc1`, which inhibition is on record?
**A.** Its inhibition is inactive: -2.5%.

**Q.** `Cc1cc(=O)[nH]c(N[N+](=O)[O-])n1` was tested. Which inhibition did it give?
**A.** Its inhibition is inactive: -0.0886%.

**Q.** For `O=C(OC1CN2CCC1CC2)C12CC3CC(CC(C3)C1)C2` (stereo not drawn), which inhibition is on record?
**A.** Its inhibition is inactive: -0.808%.

**Q.** With `Cc1c2c(nc3ccccc13)SC(C(Cl)Cl)C2` (stereo not drawn) as the molecule, how does the inhibition read?
**A.** Its inhibition is inactive: 3.48%.

**Q.** For `COc1ccc(N/C(=N/P(=O)(N2CCOCC2)N2CCOCC2)N2CCOCC2)cc1`, which inhibition is on record?
**A.** The inhibition was inactive: 0.957%.

**Q.** For `O=[N+]([O-])c1ccc2c(c1)C=Nc1ccccc1O2`, which inhibition is on record?
**A.** Its inhibition is active: 33.3%.

**Q.** With `Cc1cccc(C)c1OP(C)(N)=O` (stereo not drawn) as the molecule, how does the inhibition read?
**A.** The inhibition was inactive: -2.6%.

**Q.** How did the inhibition turn out when `CC(C)(C)c1ccc(OP(C)(=O)Nc2ccc(SC(F)(F)F)cc2)cc1` (stereo not drawn) was run?
**A.** The inhibition was inactive: 0.745%.

**Q.** `Cc1ccc(OP(=O)(Nc2ccc([N+](=O)[O-])cn2)Oc2ccc(C)cc2)cc1` was tested. Which inhibition did it give?
**A.** The inhibition was inactive: 0.027%.

**Q.** For `C[As](=O)(O)c1cccc(C(=O)O)c1`, which inhibition is on record?
**A.** The inhibition was inactive: 1.03%.

**Q.** How did the inhibition turn out when `O=[As](O)(c1ccc(O)cc1)c1ccccc1O` was run?
**A.** Its inhibition is inactive: -0.132%.

**Q.** With `O=[N+]([O-])c1cc([N+](=O)[O-])c(Nc2cccnc2)c([N+](=O)[O-])c1` as the molecule, how does the inhibition read?
**A.** Its inhibition is active: 38.3%.

**Q.** Which inhibition does the source give for `Cc1cc(C)cc(OP(C)(N)=O)c1` (stereo not drawn) here?
**A.** The inhibition was inactive: -1.38%.

**Q.** For `O=[N+]([O-])c1cc([N+](=O)[O-])c(-c2ccn[nH]2)s1`, which inhibition is on record?
**A.** The inhibition was inactive: 5.29%.

**Q.** Which inhibition does the source give for `COc1ccc(OP(C)(=O)Nc2cccc(F)c2)cc1` (stereo not drawn) here?
**A.** Its inhibition is inactive: -2.26%.

**Q.** Which inhibition does the source give for `CCN(CC)C(=S)SC(NC=O)C(Cl)(Cl)Cl` (stereo not drawn) here?
**A.** Its inhibition is inactive: -1.79%.

**Q.** `CC(C)NC(=O)NP(=O)(Oc1ccccc1)Oc1ccccc1` was tested. Which inhibition did it give?
**A.** The inhibition was inactive: -0.0889%.

**Q.** Which inhibition does the source give for `COc1ccccc1OP(C)(=O)Nc1cc(Cl)ccc1C` (stereo not drawn) here?
**A.** Its inhibition is inactive: 3.59%.

**Q.** Which inhibition does the source give for `COc1ccccc1OP(C)(=O)Nc1ccc(C)cc1` (stereo not drawn) here?
**A.** The inhibition was inactive: 1.62%.

**Q.** Which inhibition does the source give for `ClCCSc1nnc(-c2cccnc2)o1` here?
**A.** The inhibition was inactive: 2.32%.

**Q.** How did the inhibition turn out when `CCOC(=O)c1ccc(NP(C)(=O)Oc2ccccc2)cc1` (stereo not drawn) was run?
**A.** Its inhibition is inactive: -0.388%.

**Q.** `Cc1cc(SC(NC(=O)c2ccccc2)C(Cl)(Cl)Cl)nc(C(C)C)n1` (stereo not drawn) was tested. Which inhibition did it give?
**A.** Its inhibition is inactive: 3.82%.

**Q.** How did the inhibition turn out when `CCCCOc1ccc(C(=O)NCC2(N3CCCCC3)CCCCC2)cc1OC` was run?
**A.** The inhibition was inactive: 3.14%.

**Q.** How did the inhibition turn out when `CCOC(=O)Nc1ccc([As](=O)(O)O)c(O)c1` was run?
**A.** Its inhibition is inactive: -0.252%.

**Q.** Which inhibition does the source give for `O=[N+]([O-])c1ccc(Nc2ccc(Oc3ccc([N+](=O)[O-])cc3[N+](=O)[O-])cc2)c([N+](=O)[O-])c1` here?
**A.** The inhibition was inactive: 3.11%.

**Q.** How did the inhibition turn out when `CP(=O)(Nc1ccccc1Br)Oc1ccccc1` (stereo not drawn) was run?
**A.** The inhibition was inactive: -0.382%.
